# Results: PMC12672077
# Target: UL41 (VHS) (Pseudorabies virus (Suid alphaherpesvirus 1)) (UniProt G3G8Y5)
# Assay: EMSA
# Conditions: 2 uM protein, 2 uM RNA; recombinant protein; protein details: His tag from pET-28a(+) (Ni-NTA purified)
row,Sequence,binding result
1,GGAUUCCCUGGAAACAUGCA [IRF9-3],binds
2,UCAGCCCUUUUCCCAGGAU [STAT2-1],binds
3,GGGCGCGGGGACUGCAACCC [STAT2-4],binds
4,UUUAUAUUUUCCUCUUAGAU [IRF9-4],binds
5,CACCUGCCGGGAGCAUGCCU [Tyk2-3],binds
6,GCGACAGCCUGGACAGCAAC [IRF9-1],binds
7,GGUGGCUGUUUCUUGUCUGUUA [STAT2-3],binds
8,CUUAUUUUUCUUUCUUGGCC [Tyk2-5],binds
9,CUUGCUUUCUUCUUUCCUUUACU [STAT2-2],binds
10,GGGCAGUUUCCCGGAGUGUG [IRF9-2],binds
11,CGAUGGGGAAACUGAGGCCC [Tyk2-2],binds
12,CAGGAAGAAGCCGCGGGGAC [Tyk2-1],binds
13,GGUAAUAAACUCAUGUUUUCUCU [Tyk2-6],binds
14,GGUUGUGGACCUGGACAAAG [STAT2-5],binds
15,CCUGCUCCAGGAUGAAACCA [Tyk2-4],binds

# The exact form of at least one protein or probe is not confirmed. At least one verdict rests on a figure or table, not on a statement of the authors.
